Experimental findings from ChEMBL document CHEMBL4385601, “Anti-Zika Activity of a Library of Synthetic Carbohydrate Receptors” (J Med Chem, 2019) are described below.

This test deals with Zika virus. The test is described as follows: Antiviral activity against Zika virus harboring subgenomic GFP replicon infected in African green monkey Vero cells assessed as reduction in viral infection preincubated for 30 mins followed by viral infection and measured after 72 hrs.

The term IC50 denotes the midpoint of a concentration-inhibition curve.

Molecules are shown by their SMILES.

Take `[N-]=[N+]=NCc1cc(CN=[N+]=[N-])cc(-c2cc(CN=[N+]=[N-])cc(Cn3cc(COCCOCCOCCOCc4cn(Cc5cc(CN=[N+]=[N-])cc(-c6cc(CN=[N+]=[N-])cc(CN=[N+]=[N-])c6)c5)nn4)nn3)c2)c1`: the IC50 is more than 100 µM.
On to `[N-]=[N+]=NCc1cc(CN=[N+]=[N-])cc(-c2cc(CN=[N+]=[N-])cc(CN=[N+]=[N-])c2)c1`, for which the IC50 was more than 100 µM.
With `[N-]=[N+]=NCc1cc(CN=[N+]=[N-])cc(-c2cc(CN=[N+]=[N-])cc(Cn3cc(COCCOCc4cn(Cc5cc(CN=[N+]=[N-])cc(-c6cc(CN=[N+]=[N-])cc(CN=[N+]=[N-])c6)c5)nn4)nn3)c2)c1`, the IC50 was more than 100 µM.
Consider `[N-]=[N+]=NCc1cc(CN=[N+]=[N-])cc(-c2cc(CN=[N+]=[N-])cc(Cn3cc(COCCOCCOCCOCCOCCOCc4cn(Cc5cc(CN=[N+]=[N-])cc(-c6cc(CN=[N+]=[N-])cc(CN=[N+]=[N-])c6)c5)nn4)nn3)c2)c1`, for which the IC50 is more than 100 µM.
